System: P388 Lymphatic Leukemia
Assay: Antitumor activity against P388 Lymphatic Leukemia in Mice
Details: Q4D × 2, values ≥125 considered active

## 12'-hydroxyverrucarin J
Test - 1, 1.25 mg/kg
  T/C percent MST: 125%
Test - 1, 2.50 mg/kg
  T/C percent MST: 122%
Test - 2, 0.31 mg/kg
  T/C percent MST: 116%
Test - 2, 0.63 mg/kg
  T/C percent MST: 123%
Test - 2, 1.25 mg/kg
  T/C percent MST: 129%
Test - 2, 2.50 mg/kg
  T/C percent MST: 129%
